Data published in patent US20140323691A1 (UAB RESEARCH FOUNDATION, published 2014).

T1: BxpB (exosporium basal layer protein) (Bacillus anthracis)
T1 chain: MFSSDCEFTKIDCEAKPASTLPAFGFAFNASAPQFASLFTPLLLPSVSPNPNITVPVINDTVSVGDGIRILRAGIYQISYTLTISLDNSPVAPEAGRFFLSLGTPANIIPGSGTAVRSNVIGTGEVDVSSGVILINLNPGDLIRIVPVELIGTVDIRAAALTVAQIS

T2: CotE (Bacillus anthracis)
T2 chain: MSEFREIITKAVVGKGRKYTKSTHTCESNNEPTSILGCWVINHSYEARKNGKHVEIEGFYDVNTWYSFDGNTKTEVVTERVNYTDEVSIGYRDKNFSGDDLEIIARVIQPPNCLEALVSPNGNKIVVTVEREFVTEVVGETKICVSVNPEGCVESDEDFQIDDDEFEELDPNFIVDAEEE


Assays:
[1] = molecular target: T1, BxpB (exosporium basal layer protein); experiment: isopeptide bonds formed in vivo, LC-MS/MS
[2] = molecular target: T2, CotE; experiment: isopeptide bonds formed in vivo, LC-MS/MS

Binder	binding result [1]	binding result [2]
CotY (other) SCNCNEDHHHHDCDFNCVSNVVRFIHELQECATTTCGSGCEVPFLGAHNSASVANTRPFILYTKAGAPFEAFAPSANLTSCRSPIFRVESIDDDDCAVLRVLSVVLGDTSPVPPTDDPICTFLAVPNARLISTNTCLTVDLSCFCAIQCLRDVTI	binds	binds
ExsY (other) SCNENKHHGSSHCVVDVVKFINELQDCSTTTCGSGCEIPFLGAHNTASVANTRPFILYTKAGAPFEAFAPSANLTSCRSPIFRVESVDDDSCAVLRVLSVVLGDSSPVPPTDDPICTFLAVPNARLVSTSTCITVDLSCFCAIQCLRDVTI	binds	binds
